{
  "sequences": {"note": "By UniProt entry, the sequences of proteins in these tests, tags left out. Where a name states a change or a piece, a line headed by the entry shows the natural chain unless it says otherwise.", "UniProt P9WNZ1": "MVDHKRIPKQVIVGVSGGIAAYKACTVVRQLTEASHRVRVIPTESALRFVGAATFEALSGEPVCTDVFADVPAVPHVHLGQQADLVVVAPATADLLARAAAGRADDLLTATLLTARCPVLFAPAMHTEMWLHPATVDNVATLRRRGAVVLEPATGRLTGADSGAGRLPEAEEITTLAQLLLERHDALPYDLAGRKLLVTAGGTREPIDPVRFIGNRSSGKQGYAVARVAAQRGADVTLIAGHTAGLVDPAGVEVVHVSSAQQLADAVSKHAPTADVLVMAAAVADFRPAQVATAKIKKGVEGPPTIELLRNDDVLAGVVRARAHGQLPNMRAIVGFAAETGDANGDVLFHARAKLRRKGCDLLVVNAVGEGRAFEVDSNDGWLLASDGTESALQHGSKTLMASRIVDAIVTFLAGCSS"},
  "source": "paper PMC7794376",
  "about": "(Nature Communications, 2021)",
  "biological_target": "MtbCoaBC (Mycobacterium tuberculosis, UniProt P9WNZ1)",
  "format": "biochemical",
  "settings": "CoaB activity; […] CTP, […] PPA, 500 µM L-cysteine; average of three independent experiments ± SD; read-out: IC50 EnzChek MtbCoaBC",
  "data": [
    {"substance": "succinyl-CoA [SucCoA]", "values": [
      {"measurement": "IC50", "value": "38 ± 2", "unit": "µM"}
    ]}
  ]
}
